In assay [1] the target is T1, Mu homology domain (MHD) of the AP-2 subunit mu (AP2M1 MHD) (human, UniProt Q96CW1 170-434).
T1 sequence (looked up): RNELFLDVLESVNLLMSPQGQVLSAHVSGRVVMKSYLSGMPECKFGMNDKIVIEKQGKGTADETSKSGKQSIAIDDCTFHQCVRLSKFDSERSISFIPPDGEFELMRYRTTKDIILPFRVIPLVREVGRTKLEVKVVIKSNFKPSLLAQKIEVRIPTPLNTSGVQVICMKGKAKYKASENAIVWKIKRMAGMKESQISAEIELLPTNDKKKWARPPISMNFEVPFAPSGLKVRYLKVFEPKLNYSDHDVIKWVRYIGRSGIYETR
The settings on record: both partners purified.

Assay [2] addresses T2, C terminal domain of polyadenylate-binding protein 1 (PABP1 PABC) (human, UniProt P11940 542-619).
T2 construct: also called PABPC1 PABC; PABP1 C
The settings on record: both partners purified.

Data on 3 molecules can be found in publication PMC10132805 (Nature Communications, 2023).

As for PTDSNFYRALMDEEDM [EGFR 992-1007 (Human)], the affinity in assay [1], expressed as Kd, was 2400 nM.
Take KSNLNPNAKEFVPGVK (FITC on the N-terminus) [FITC - PAIP2 108-123 (Human)]: the equilibrium dissociation constant (Kd) (in general, the constant that tells how readily two partners part at equilibrium) in assay [2] came to 380 nM.
Take FDTEYQRLEAS (FITC on the N-terminus) [FITC - ATG9A 4-14 (Human)]: the equilibrium dissociation constant (Kd) in assay [1] came to 760 nM. This lies in the sub-micromolar range.
